Source: doi:10.1101/2022.08.07.503104

Molecular target: Recombinant HIV-1 capsid protein (CA) (HIV-1)
Assay: SPR

Recombinant human CypA (from UniProt P62937 1-165) (enzyme)
Kd: 3.6 µM
